Measured data: PubChem BioAssay AID624099 (ICCB-Longwood, 2012)
Assay: 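Host factors E2 relies on to silence an HPV18 LCR reporter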 (primary screen). Cell system: human C33A cervical carcinoma cells (HPV-negative) stably expressing BPV1 E2 and an HPV18 LCR luciferase reporter. Knock-down reagent: siRNA pool against human genes, 40 nM. Timing: 72 h. Measurement: 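HPV18 LCR reporter light per well, converted to plate-wise z-scores that exclude control wells, and averaged over triplicate plates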. Direction: mean z-score and z-score: higher = stronger reporter signal, weaker E2 silencing. Call rule: 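Mean z ≥ 2 together with z ≥ 2 in two or more of the three replicates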.
Here is a random part of about 21,000 deposited reagents. 497 of all reagents (2.4%) were called active. 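Higher z means weaker E2 silencing; only reporter increases were scored, and knock-downs that hurt cell survival may mask genuine repressor factors.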

target gene	mean z-score	z-score, replicate A	z-score, replicate B	z-score, replicate C	activity call
LOC121792 (retired record)	-1.42	-1.25	-1.71	-1.31	inactive
CCM2 (CCM2 scaffold protein)	0.09	-0.19	0.06	0.41	inactive
UBE2B (ubiquitin conjugating enzyme E2 B)	-0.24	-0.1	-0.38	-0.23	inactive
R3HDML (R3H domain containing like)	-0.9	-0.8	-0.94	-0.95	inactive
LINC01242 (long independently transcribed non-coding RNA 1242)	0.83	0.81	0.73	0.97	inactive
GPR15 (G protein-coupled receptor 15)	-0.49	-0.53	-0.66	-0.27	inactive
CYTH3 (cytohesin 3)	0.99	1.05	1.09	0.83	inactive
IL34 (interleukin 34)	0.37	0.24	0.37	0.49	inactive

Not a retest: 3 of the entries above.
target gene	mean z-score	z-score, replicate A	z-score, replicate B	z-score, replicate C	activity call
CCM2 (CCM2 scaffold protein)	0.09	-0.19	0.06	0.41	inactive
UBE2B (ubiquitin conjugating enzyme E2 B)	-0.24	-0.1	-0.38	-0.23	inactive
R3HDML (R3H domain containing like)	-0.9	-0.8	-0.94	-0.95	inactive

More results:
target gene	mean z-score	z-score, replicate A	z-score, replicate B	z-score, replicate C	activity call
SLC38A2	-0.29	-0.3	-0.06	-0.52	inactive
FOXP3 (forkhead box P3)	-0.26	-0.13	-0.38	-0.28	inactive
SAMD8 (sterile alpha motif domain containing 8)	-1.84	-2.1	-2.23	-1.19	inactive
MEOX2 (mesenchyme homeobox 2)	0.53	0.73	0.36	0.49	inactive
ORC1 (origin recognition complex subunit 1)	-0.17	-0.1	-0.06	-0.35	inactive
MICU1 (mitochondrial calcium uptake 1)	-0.81	-0.91	-0.88	-0.64	inactive
KLKB1 (kallikrein B1)	-0.19	0.15	0.22	-0.95	inactive
FOXJ2 (forkhead box J2)	1.15	1.01	1.3	1.15	inactive
LOC400004 (retired record)	-1.04	-1.01	-1.14	-0.98	inactive
MPP1 (MAGUK p55 scaffold protein 1)	-0.45	-0.79	-0.23	-0.34	inactive
RUNDC1 (RUN domain containing 1)	-0.29	-0.48	-0.13	-0.26	inactive
ELAPOR2	-1	-1.01	-1	-0.98	inactive
FAM107A (family with sequence similarity 107 member A)	0.56	0.47	0.5	0.72	inactive
CHD2 (chromodomain helicase DNA binding protein 2)	0.19	0.1	0.36	0.1	inactive
UBE2Q2 (ubiquitin conjugating enzyme E2 Q2)	-1.99	-1.99	-1.9	-2.09	inactive
